PubChem BioAssay AID1259414 – Drosophila RNAi Screening Center – 2018

- Test: 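Genome-wide screen for host control of endosymbiont load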 (primary screen)
- Cell system: Drosophila JW18 cells infected with Wolbachia
- Reagents: long dsRNA against Drosophila genes, 0.25 µg dsRNA per well of a 384-well plate
- Time to read-out: 5 days
- Conditions: cells persistently infected with Wolbachia before knock-down; no added drug
- Measured: 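Automated imaging of bacterial rRNA staining divided by host cell count, reported as plate-normalised robust z-score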
- Reading the numbers: Wolbachia per cell robust z: higher = more Wolbachia per host cell than the plate typical
- Active means: 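Hit when robust z is 1.5 or more, or -1.5 or less, in at least two of three replicates; excludes dsRNAs with several or no targets, genes not expressed in JW18 and well A1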
The screen tested about 24,000 reagents; shown is an unselected part of those that have a named target and a result. In the full data, about 1,210 (5%) are marked active. 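Inactive calls also include excluded dsRNAs with several or no targets, genes unexpressed in JW18, and well A1, regardless of score.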 Unmarked entries are inactive. A plus sign joins genes that one reagent is predicted to hit.

Target gene | amplicon | Wolbachia per cell robust z, rep 1 | Wolbachia per cell robust z, rep 2 | Wolbachia per cell robust z, rep 3
CG13390 | DRSC02261 | 0.413 | 1.16 | -1.34
CG13390 | DRSC24783 | -0.0409 | -0.478 | -0.101
CG13390 | DRSC39014 | -1.08 | -0.74 | -0.515
Ppi1 | DRSC15421 | -0.308 | 0.594 | 0.304
CG1137 | DRSC12529 | -1.65 | 1.59 | 0.479
CG1137 | DRSC29434 | -0.126 | 0.867 | 1.06
MetRS | DRSC22533 | -1.34 | 0.673 | -0.214
CG3149 | DRSC17732 | -0.121 | -2.87 | -0.0271
CG3149 | DRSC27511 | 0.0342 | 0.811 | 1.71
CG10474 | DRSC05993 | 1.35 | 1.55 | -1.8
gb | DRSC15961 | 0.505 | -7.12 | -0.62
gb | DRSC24834 | -1.49 (active) | -3.4 | -1.69
MED23 + CG3700 | DRSC04406 | -2.5 (active) | -4.59 | 0.889
MED23 + CG3700 | DRSC04407 | 0.599 | 1.02 | 0.985
Acbp5 | DRSC10548 | -3.94 | -1.08 | 0.35
Ptp69D | DRSC11258 | 0.388 | -0.199 | -1.28
CG43329 | DRSC11672 | 0.0158 | 0.346 | 0.705
lncRNA:CR33963 | DRSC37787 | -0.866 | 0.609 | -0.246
Mettl14 | DRSC03073 | 0.131 | -0.996 | -0.781
alpha-Est5 | DRSC12617 | 0.312 | 0.33 | -0.391
CG10494 | DRSC04072 | -5.57 (active) | -0.664 | -2.42
CG10494 | DRSC29883 | 0.672 | -0.299 | -2.19
RpS27 | DRSC14244 | 1.34 | 0.874 | 1.94
RpS27 | DRSC29946 | 3.4 (active) | 2.22 | 4.58
CG6330 | DRSC16022 | -0.621 | -1.59 | -0.83
CG13748 | DRSC06419 | -5.19 | -1.53 | -1.51
Adsl | DRSC15500 | 0.114 | 1.18 | 1.64
side-V | DRSC04189 | -0.768 | 0.451 | -1.55

Part of the list above, limited to “Wolbachia per cell robust z, rep 1”.
gb [DRSC15961] = 0.505
gb [DRSC24834] = -1.49 (active)
